A mixed list of measured activities; the numbers were collected in NIAID ChemDB.

Common to all: whole-cell or culture tests; organism: Mycobacterium tuberculosis

MIC50, MIC90 and the like: level of inhibition, or share of isolates inhibited. Percent inhibition refers to the dose given; in toxicity tests it is the harm to the cells. MIC bound: limit read from a one-dose screen. Rows are shuffled and stem from different studies. An empty or dashed field is not shown. ECn is the concentration giving n% inhibition of infection, replication or growth.

SMILES,conditions,measure,strain or isolate,read by,dose,value
COc1ccc2[nH]c3c(C)c4ccncc4c(C)c3c2c1,-,MIC,CS-R,-,-,0.8 µg/mL
NNC(=O)c1ccncc1,-,MIC,H37Rv,-,-,0.025 µg/mL
O=C(/C=C/c1ccccc1)c1ccccc1,14 d,MIC,H37Rv,MTT,-,32 µg/mL
CCCCCCCCCCCCOC(=O)[C@H](Cc1c[nH]c2ccccc12)NC(=O)N[C@@H](Cc1ccc2ccccc2c1)C(=O)N[C@H](C(=O)NC[C@H]1C[C@@H](O)[C@H](n2ccc(=O)[nH]c2=O)O1)[C@H](C)N(C)C(=O)CN,-,MIC50,H37Rv,resazurin / fluorescence,-,0.25 µM
Cc1ccc(NC(=S)N=Nc2c(O)[nH]c3ccc(C)cc23)cc1,-,EC50,H37Rv,broth dilution / resazurin,-,1.422 µg/mL
CCN(CC)CCNc1ccc(C)c2sc3ccc(O)cc3c(=O)c12.I,-,MIC bound,H37Rv,BACTEC,-,≤12.5 µg/mL
CCCCCCCOc1cccc(NC(=O)OCC[NH+]2CCCC2)c1,-,MIC,My 331/88,-,-,32 µM
NOCc1csc(N)n1,-,inhibition,H37Rv,BACTEC,6.25 µg/mL,0%
CCCCCCCCCCOc1ccc(NC(=O)OCCN2CCOCC2)cc1,-,MIC,My 331/88,-,-,16 µM
CC(=O)C(NC(=O)C(C)C(O)C(C)NC(=O)C(NC(=O)c1nc(C(CC(N)=O)NCC(N)C(N)=O)nc(N)c1C)C(OC1OC(CO)C(O)C(O)C1(C)OC1OC(CO)C(O)C(O)(C(N)=O)C1O)c1cnc[nH]1)C(=O)NCCC1=NC(c2nc(C(N)=O)cs2)CS1,-,MIC,EMB-R,-,-,0.013 µg/mL
CO[C@H]1/C=C/O[C@@]2(C)Oc3c(C)c(O)c4c(O)c(c5c(c4c3C2=O)NC2(CCN(CC(C)C)CC2)N=5)=NC(=O)/C(C)=C\C=C\[C@H](C)[C@H](O)[C@@H](C)[C@@H](O)[C@@H](C)[C@H](OC(C)=O)[C@@H]1C,-,MIC,H37RV (RIF-S),-,-,0.06 µg/mL
Clc1ccc(-n2ncc(C(c3ccccc3)n3ccnc3)c2-c2ccccc2)c(Cl)c1,-,MIC90,ATCC 35837 (ethambutol-resistant),-,-,>100 µM
COC(=O)[C@]12OC[C@]34[C@H]([C@@H](O)[C@H]1O)[C@@]1(C)CC(=O)C(O)=C(C)[C@@H]1C[C@H]3OC(=O)[C@H](OC(=O)/C=C(\C)C(C)C)[C@@H]24,-,inhibition,H37Rv,-,12.5 µg/mL,9%
CCCCc1c(O)c2c(=O)[nH]c(C)nc2oc1=O,-,inhibition,H37Rv,BACTEC,12.5 µg/mL,33%
O=C(/C=C/c1ccc(F)cc1Cl)c1ccc(F)cc1,21 d,MIC,H37Rv,MTT,-,32 µg/mL
C[C@@H]([C@H](NC(=O)[C@H](Cc1ccc2ccccc2c1)NC(=O)N[C@@H](Cc1c[nH]c2ccccc12)C(=O)O)C(=O)NC[C@H]1C[C@@H](O)[C@H](n2ccc(=O)[nH]c2=O)O1)N(C)C(=O)CN,-,MIC99,H37Rv,resazurin / fluorescence,-,0.8 µM
CCCCCCCOc1ccc(NC(=O)OCCN2CCOCC2)cc1,-,MIC,My 331/88,-,-,8 µM
N#C/C(=C\c1c(Cl)cccc1Cl)n1nnc2ccccc21,-,MIC50,ATCC 27294,-,-,6 µM
COC1=C[C@@H](C)[C@@H]2C[C@H]3OC(=O)C[C@]4(O)[C@@]3(C)[C@H]([C@H](O)[C@@H](OC)[C@@]4(C)O)[C@@]2(C)C1=O,-,inhibition,H37Rv,-,12.5 µg/mL,5%
O=C(O)c1cc([N+](=O)[O-])c2c(c1)P(=O)(O)c1cc(C(=O)O)cc([N+](=O)[O-])c1O2,-,MIC bound,H37Rv,BACTEC,-,>12.5 µg/mL
CC1COc2c(N3CCN(C)CC3)c(F)cc3c(=O)c(C(=O)O)cn1c23,-,MIC90,ATCC 35820 (streptomycin-resistant),-,-,2.1 µM
NNc1cccc(Cl)n1,-,MIC bound,H37Rv,BACTEC,-,>12.5 µg/mL
COC(=O)[C@]12OC[C@]34[C@H]([C@@H](O)[C@@H]1O)[C@@]1(C)C(=O)C(O)=C[C@@H](C)[C@@H]1C[C@H]3OC(=O)[C@H](OC(=O)/C=C(\C)C(C)C)[C@@H]24,-,inhibition,H37Rv,-,12.5 µg/mL,3%
N#C/C(=C\c1ccc(Cl)c(Cl)c1)n1nnc2ccccc21,-,MIC50,ATCC 27294,-,-,≥100 µM
COc1ccccc1NC(=O)OCCN1CCOCC1,-,MIC,My 331/88,-,-,1000 µM
C/C=C/C=N/NC(=O)c1ccccc1Cl,-,MIC,-,-,-,10 µg/mL
CCCCCCOC(=O)[C@H](Cc1c[nH]c2ccccc12)NC(=O)N[C@@H](Cc1ccc2ccccc2c1)C(=O)N[C@H](C(=O)NC[C@H]1C[C@@H](O)[C@H](n2ccc(=O)[nH]c2=O)O1)[C@H](C)N(C)C(=O)CN,-,MIC50,H37Rv,resazurin / fluorescence,-,0.03 µM
Clc1ccc(-c2c(C(c3ccccc3)n3ccnc3)cnn2-c2ccc(Cl)cc2Cl)cc1,-,MIC90,ATCC 35837 (ethambutol-resistant),-,-,≥100 µM
COc1cccc(/C=C/C(=O)c2ccc(F)cc2)c1F,14 d,MIC,H37Rv,MTT,-,32 µg/mL
Cc1cc(-c2cc3c(cc2F)c(=O)c(C(=O)O)cn3C2CC2)cc(C)n1,-,MIC,1773-6,-,-,1 µg/mL
Fc1ccc(-n2ncc(C(c3ccccc3)n3ccnc3)c2-c2ccccc2)cc1,-,MIC50,ATCC 35837 (ethambutol-resistant),-,-,≥100 µM
CO[C@H]1/C=C/O[C@@]2(C)Oc3c(C)c(O)c4c(=O)c(c5oc6cc(N7CCN(CC(C)C)CC7)cc(=O)c6nc5c4c3=C2O)NC(=O)/C(C)=C\C=C\[C@H](C)[C@H](O)[C@@H](C)[C@@H](O)[C@@H](C)[C@H](OC(C)=O)[C@@H]1C,-,MIC,32 (isoniazid-resistant),-,-,0.0039 µg/mL
c1ccc(C2N=NC(c3ccccc3)O2)cc1,-,MIC,-,-,-,200 µg/mL
CCCCCCNC(=O)[C@H](Cc1c[nH]c2ccccc12)NC(=O)N[C@@H](CC1CCCCC1)C(=O)N[C@H](C(=O)NC[C@H]1C[C@@H](O)[C@H](n2ccc(=O)[nH]c2=O)O1)[C@H](C)N(C)C(=O)CN,-,MIC99,H37Rv,resazurin / fluorescence,-,>0.5 µM
Cc1cnc(C)c(SCC(=O)c2ccc(Br)cc2)n1,-,MIC bound,H37Rv,BACTEC,-,>12.5 µg/mL
CCOc1ccc(C(=O)NN)cc1,-,MIC,-,-,-,40 µg/mL
Clc1ccc(-c2c(C(c3ccccc3)n3ccnc3)cnn2-c2ccccc2)cc1,-,MIC90,ATCC 27294,-,-,90 µM
O=C(/C=C/c1ccc(F)cc1)c1ccc(O)cc1,21 d,MIC,H37Rv,resazurin,-,32 µg/mL
O=C(O)/C=C/C(=O)Nc1ccc2c(c1)oc(=O)c1ccccc12,-,MIC bound,H37Rv,BACTEC,-,>12.5 µg/mL
N#C/C(=C/c1ccccc1[N+](=O)[O-])n1nnc2ccccc21,-,MIC50,ATCC 27294,-,-,>100 µM
CCCCNC(=S)N=Nc1c(O)n(C)c2ccc(C)cc12,-,EC90,H37Rv,broth dilution / resazurin,-,>100 µg/mL
O=C1C(/C=C\c2ccc(Cl)cc2)=NNC2N1N=C1NC(=O)C3(NN12)c1ccccc1-c1ccccc13,-,MIC bound,H37Rv,BACTEC,-,>12.5 µg/mL
O=C(/C=C/c1ccc(F)cc1)c1ccc(F)cc1,21 d,MIC,H37Rv,resazurin,-,32 µg/mL
NC(=O)c1cc([N+](=O)[O-])cnc1Sc1ncccn1,-,MIC,H37Rv,BACTEC,-,≥12.5 µg/mL
Fc1ccccc1-c1c(C(c2ccccc2)n2ccnc2)cnn1-c1ccccc1F,-,MIC90,ATCC 27294,-,-,>100 µM
COC1=C[C@@H](C)[C@@H]2C[C@H]3OC(=O)C[C@H]4[C@](C)(O)[C@@H]5OCO[C@H]5[C@H]([C@@]2(C)C1=O)[C@@]34C,-,EC50,H37Rv,-,-,>12.5 µg/mL
CNC(=S)N=Nc1c(O)[nH]c2ccc(C)cc12,-,EC90,H37Rv,broth dilution / resazurin,-,>100 µg/mL
COC1=C[C@@H](C)[C@@H]2C[C@H]3OC(=O)C[C@@H]4[C@@]3(C)[C@H]([C@H](O)C[C@@]4(C)C(=O)C3(C)COC(=O)C3)[C@@]2(C)C1=O,-,EC50,H37Rv,-,-,>12.5 µg/mL
Cn1c(O)c(N=NC(=S)Nc2ccccc2)c2cc(OC(F)(F)F)ccc21,-,EC90,H37Rv,broth dilution / resazurin,-,>100 µg/mL
NNC(=O)c1ccccc1NC(=O)CSc1nc2ccccc2s1,-,MIC bound,H37Rv,BACTEC,-,>12.5 µg/mL
CO[C@H]1/C=C/O[C@@]2(C)Oc3c(C)c(O)c4c(O)c(c(/C=N/N5CCN(C6CCCC6)CC5)c(O)c4c3C2=O)NC(=O)/C(C)=C\C=C\[C@H](C)[C@H](O)[C@@H](C)[C@@H](O)[C@@H](C)[C@H](OC(C)=O)[C@@H]1C,-,MIC,H37Rv (viomycin-resistant),-,-,1.25 µg/mL
CCCCCCCCCCOc1ccc(NC(=O)OCCN(C)C)cc1,-,MIC,My 331/88,-,-,4 µM
C[C@@H]([C@H](NC(=O)[C@H](Cc1ccc2ccccc2c1)NC(=O)N[C@@H](Cc1c[nH]c2ccccc12)C(=O)NCc1ccccc1)C(=O)NC[C@H]1C[C@@H](O)[C@H](n2ccc(=O)[nH]c2=O)O1)N(C)C(=O)CN,-,MIC99,H37Rv,resazurin / fluorescence,-,0.328 µM
C=C(C)C(=O)OC1CCC2(C)C(CCC3C2CCC2(C)C(c4ccc(=O)oc4)CC4OC432)C1,-,MIC,H37Rv,BACTEC,-,≥12.5 µg/mL
Fc1ccc(-c2c(C(c3ccccc3)n3ccnc3)cnn2-c2ccc(F)cc2F)cc1,-,MIC50,ATCC 35837 (ethambutol-resistant),-,-,≥100 µM
Cn1c(O)c(N=NC(=S)Nc2ccc(F)cc2)c2cc(OC(F)(F)F)ccc21,-,EC90,H37Rv,broth dilution / resazurin,-,>100 µg/mL
CCN=c1cc2n(-c3ccc(C(F)(F)F)cc3)c3ccccc3nc-2cc1Nc1ccc(C(F)(F)F)cc1,multidrug-resistant,MIC,2218,-,-,≤0.06 µg/mL
COc1ccc(C(=O)/C=C/c2ccc(F)cc2)cc1F,14 d,MIC,H37Rv,resazurin,-,128 µg/mL
Fc1ccccc1-n1ncc(C(c2ccccc2)n2ccnc2)c1-c1ccccc1,-,MIC50,ATCC 35837 (ethambutol-resistant),-,-,≥100 µM
CCCCCCCC[N+]1([O-])CC[N+](C)([O-])CC1,-,MIC bound,H37Rv,BACTEC,-,>12.5 µg/mL
N#C/C(=C\c1ccccc1F)n1nnc2ccccc21,-,MIC50,ATCC 27294,-,-,47.2 µM
CC1=CC(O)CC(C)(C)C1/C=C/C(C)=C/C=C/C(C)=C/C=C/C=C(C)/C=C/C=C(C)/C=C/C1=C(C)CC(O)CC1(C)C,-,MIC bound,H37Rv,BACTEC,-,>12.5 µg/mL
Cc1ccc(C(=O)/C=C/c2ccccc2)cc1,-,MIC,H37Rv,MTT,-,32 µg/mL
O=C(N/N=C/c1ccccc1)c1ccccc1,-,MIC,-,-,-,1 µg/mL
N#C/C(=C\c1cccc(F)c1)n1nnc2ccccc21,-,MIC50,ATCC 27294,-,-,55.3 µM
Cn1c([N+](=O)[O-])cnc1CSC(=S)N1CCN(C(=S)SCc2ncc([N+](=O)[O-])n2C)CC1,-,MIC bound,H37Rv,BACTEC,-,≤128 µg/mL
CC(=O)NNS(=O)(=O)c1ccc([N+](=O)[O-])cc1,-,MIC,-,-,-,200 µg/mL
c1ccc(-c2nnsc2-c2ccccc2)cc1,-,MIC,H37Rv,BACTEC,-,>12.5 µg/mL
O=c1[nH][nH]c2ccccc12,-,MIC,-,-,-,>200 µg/mL
C/C(=N/NC(=S)N1CCN(c2ccccc2)CC1)c1nccs1,-,MIC,H37Rv,resazurin,-,3.13 µg/mL
Cc1ccc2[nH]c(O)c(N=NC(=S)NC3CCCCC3)c2c1,-,EC50,H37Rv,broth dilution / resazurin,-,0.705 µg/mL
Nc1cccc2c(=O)[nH][nH]c(=O)c12,-,MIC,-,-,-,>200 µg/mL
Nc1c(Cl)c(Cl)c2c([nH]c(=O)c3cc(Cl)ccc32)c1Cl,-,MIC bound,H37Rv,BACTEC,-,>12.5 µg/mL
O=C1CC(c2ccccc2)=NN1,-,MIC,-,-,-,>200 µg/mL
Oc1[nH]c2ccc(OC(F)(F)F)cc2c1N=NC(=S)NC1CCCCC1,-,EC50,H37Rv,broth dilution / resazurin,-,33.3 µg/mL
O=C1S/C(=C2/C(=O)N(CN3CCOCC3)c3ccccc32)C(=O)N1CN1CCOCC1,-,inhibition,H37Rv,BACTEC,12.5 µg/mL,0%
O=C(N/N=C/c1ccc(O)cc1)c1ccccc1Cl,-,MIC,-,-,-,100 µg/mL